From patent US6943268B2 (priority 1999, dated 2005) come the findings set out here.

The assay deals with HIV-1. Briefly: NIH Anti-HIV Drug Testing System (XTT, CEM T4 lymphocytes). A general note: Formazan colour is commonly taken as a measure of viable cells.

For the compound `O=[As]c1ccccc1` (centres unmarked), the anti-HIV activity entry (6 days, long-term toxicity superimposed) is given as “did show anti-HIV activity”. For the same compound, the “concentration expected to show a complete blockade of HIV entry” value (modified protocol: drug and free virion removed after the infection period) turned out to be 10 µM.
